Results of unrelated studies side by side (data: NIAID ChemDB).

Common to all: growth or infection tests; endpoint: EC50

ECn: concentration that inhibits the pathogen or its effect by n%. Lines come from different laboratories, so protocols vary. An empty or dashed field is not shown.

{"smiles": "O=c1[nH]c(=O)n([C@@H]2O[C@H](CO)[C@@H](O)[C@@H]2O)cc1/C=C/Br", "read by": "syncytia", "agent": "Human herpesvirus 7", "cell line": "CD4+ T lymphocytes", "value": ">250 µg/mL"}
{"smiles": "O=c1[nH]c(=O)n([C@@H]2O[C@H](CO)[C@@H](O)[C@@H]2O)cc1/C=C/Br", "strain or isolate": "GS", "read by": "cytopathic effect", "agent": "Human herpesvirus 6", "cell line": "HSB-2", "value": ">75 µM"}
{"smiles": "Nc1nc2c(ncn2[C@@H]2C[C@H](CO)[C@H]2CO)c(=O)[nH]1", "read by": "syncytia", "agent": "Human herpesvirus 7", "cell line": "SupT1", "value": "3.4 µg/mL"}
{"smiles": "Nc1nc2c(ncn2C[C@H]2COP(=O)(O)CO2)c(=O)[nH]1", "strain or isolate": "GS", "read by": "antigen / flow cytometry", "agent": "Human herpesvirus 6", "cell line": "HSB-2", "value": "10 µM"}
{"smiles": "Nc1ccn(C[C@@H](CO)OCP(=O)(O)O)c(=O)n1", "agent": "Human herpesvirus 6", "cell line": "Human cord blood lymphocytes", "value": "0.25 µM"}
{"smiles": "C=C1CCC2CC(C(=C)C)C2(C)CCC(C(=C)C(=O)O)CC1CC=C(C)C", "strain or isolate": "HRV3", "agent": "Human rhinovirus", "cell line": "HeLa", "value": "0.19 µg/mL"}
{"smiles": "Nc1nc2c(ncn2C[C@@H](CO)OCP(=O)(O)O)c(=O)[nH]1", "strain or isolate": "GS", "read by": "cytopathic effect", "agent": "Human herpesvirus 6", "cell line": "HSB-2", "value": "4.9 µM"}
{"smiles": "Nc1nc2c(ncn2C[C@]2(CO)C[C@H]2CO)c(=O)[nH]1", "agent": "Human herpesvirus 6", "cell line": "Human cord blood lymphocytes", "value": "0.65 µM"}
{"smiles": "Nc1ncnc2c1ncn2C[C@@H](CF)OCP(=O)(O)O", "strain or isolate": "GS", "read by": "antigen / flow cytometry", "agent": "Human herpesvirus 6", "cell line": "HSB-2", "value": ">300 µM"}
{"smiles": "O=C(O)P(=O)(O)O", "read by": "syncytia", "agent": "Human herpesvirus 7", "cell line": "SupT1", "value": "2.3 µg/mL"}
{"smiles": "Nc1nc(N)c2nnn(C[C@@H](CO)OCP(=O)(O)O)c2n1", "strain or isolate": "GS", "read by": "antigen / flow cytometry", "agent": "Human herpesvirus 6", "cell line": "HSB-2", "value": ">300 µM"}
{"smiles": "Nc1nc2c(ncn2CCC(CO)CO)c(=O)[nH]1", "read by": "syncytia", "agent": "Human herpesvirus 7", "cell line": "SupT1", "value": ">170 µM"}
{"smiles": "O=c1[nH]c(=O)n([C@H]2C[C@H](O)[C@@H](CO)O2)cc1/C=C/Br", "read by": "syncytia", "agent": "Human herpesvirus 7", "cell line": "SupT1", "value": ">20 µg/mL"}
{"smiles": "Nc1ncnc2c1ncn2CCOCP(=O)(O)O", "read by": "syncytia", "agent": "Human herpesvirus 7", "cell line": "SupT1", "value": "3.4 µM"}
{"smiles": "C[C@H](Cn1cnc2c(N)ncnc21)OCP(=O)(O)O", "read by": "syncytia", "agent": "Human herpesvirus 7", "cell line": "CD4+ T lymphocytes", "value": "84 µg/mL"}

2 of the rows above, restated:

smiles,strain or isolate,read by,agent,cell line,value
Nc1nc2c(ncn2CCC(CO)CO)c(=O)[nH]1,,syncytia,Human herpesvirus 7,SupT1,>170 µM
Nc1nc(N)c2nnn(C[C@@H](CO)OCP(=O)(O)O)c2n1,GS,antigen / flow cytometry,Human herpesvirus 6,HSB-2,>300 µM